Measurements: BindingDB's records for 10.1007/s00044-011-9804-0, “Synthesis and enzyme inhibitory activities of some new pyrazole-based heterocyclic compounds” (2012)

Sequences of proteins named here, by UniProt entry; tags and fusion partners are left off. Residues count along the entry.
UniProt J3SE37, 1-563: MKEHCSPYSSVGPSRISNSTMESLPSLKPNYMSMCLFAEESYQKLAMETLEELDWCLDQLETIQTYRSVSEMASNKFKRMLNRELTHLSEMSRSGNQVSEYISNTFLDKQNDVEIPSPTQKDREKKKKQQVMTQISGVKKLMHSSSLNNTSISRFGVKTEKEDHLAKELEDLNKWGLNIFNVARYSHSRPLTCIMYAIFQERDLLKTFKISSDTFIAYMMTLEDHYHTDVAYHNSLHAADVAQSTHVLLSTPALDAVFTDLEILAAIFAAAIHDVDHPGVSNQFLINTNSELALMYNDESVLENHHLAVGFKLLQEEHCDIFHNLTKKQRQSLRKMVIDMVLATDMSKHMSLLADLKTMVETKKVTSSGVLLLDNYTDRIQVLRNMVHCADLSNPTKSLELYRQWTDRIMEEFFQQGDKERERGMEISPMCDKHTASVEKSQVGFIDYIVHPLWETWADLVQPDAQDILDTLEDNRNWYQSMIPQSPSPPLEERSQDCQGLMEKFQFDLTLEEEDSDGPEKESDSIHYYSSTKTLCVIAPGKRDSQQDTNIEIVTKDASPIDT

Target: Phosphodiesterase (Crotalus adamanteus, UniProt J3SE37)
Test: Inhibition of Serpentes (snake) venom phosphodiesterase using bis(p-nitrophenyl)phosphate as substrate incubated for 30 min prior to substrate addition by spectrophotometric analysis

O=C(O)CN(CCN(CC(=O)O)CC(=O)O)CC(=O)O
IC50: 74 µM
